The target of assay [1] is human Nav1.7 (human), Q15858. Description: cell-based or functional assay.
Assay [2] concerns the target human Nav1.6 (human), Q9UQD0. Briefly: cell-based or functional assay.
Assay [3] has as its target human Nav1.4 (human), P35499. Description: cell-based or functional assay.
Assay [4] deals with human Nav1.2 (human), Q99250. Briefly: cell-based or functional assay.
The target in assay [5] is human Nav1.1 (human), P35498. Briefly: cell-based or functional assay.
A further assay has as its target human Nav1.7, Q15858. Description: QPatch. The conditions noted are these: chains peptide; modification not given. A general note: Patch clamp records ionic current or voltage across a cell membrane.
Another assay has as its target human Nav1.6, Q9UQD0. Briefly: QPatch. The conditions noted are these: chains peptide; modification not given.
In assay [6] the target is human Nav1.5 (human), Q14524. Description: cell-based or functional assay.
Assay [7] has as its target human Nav1.7 (sodium channel protein type 9 subunit alpha) (human), Q15858. Briefly: cell-based or functional assay.

A value given as a limit tells only on which side of the number the result lay.

In [1], GPYCQKWMWTCDSERKCCEGMVCRLWCKKKLL (modifications not checked) [NV1G2232] came in with a hNav1.7 QPatch % blk at 10 nM of 56.5%, a hNav1.7 QPatch IC50 of 5 nM and a hNav1.7 TETRA IC50 of 16.7 nM. The molecule also showed a Nav1.6 IC50, QPatch in assay [2] of 563 nM.

Turning to GPYCQKWMWTCDSERKCCEGMVCRLWCKKKLY (modifications not checked) [NV1G2319], in [3], the Nav1.4 IC50, QPatch amounted to 1700 nM.

In assay [1], GPYCQKWMQTCDVERKCCEGMVCRLWCKKKLL (modifications not checked) [64053301] showed a hNav1.7 QPatch % blk at 10 nM of 45.8% and a hNav1.7 QPatch IC50 of 10.7 nM. The molecule also had a Nav1.2 IC50, QPatch in assay [4] of 19400 nM. The molecule also returned a Nav1.4 IC50, QPatch in assay [3] of 2240 nM. This molecule showed a Nav1.1 IC50, QPatch in assay [5] of 15300 nM.

Consider GPYCQKWMWTCDSERKCCEGMVCRLWCKKKLF (modifications not checked) [NV1G2182], for which, in [1], the hNav1.7 QPatch % blk at 10 nM came out at 54.2% and the hNav1.7 QPatch IC50 is 3.8 nM. The Nav1.2 IC50, QPatch in assay [4] was determined as 240 nM. This molecule yielded a Nav1.4 IC50, QPatch in assay [3] of 732 nM. The same molecule yielded a Nav1.6 IC50, QPatch in [2] of 253 nM.

In [1], GPYCQKWMQTCDSERKCCLGMVCRLWCKKKLL (modifications not checked) [64053275] came in with a hNav1.7 QPatch % blk at 10 nM of 48.2% and a hNav1.7 QPatch IC50 of 2.9 nM. In assay [4], this molecule yielded a Nav1.2 IC50, QPatch of 137 nM. In [3], this molecule displayed a Nav1.4 IC50, QPatch of 2220 nM. The Nav1.1 IC50, QPatch in assay [5] was 3870 nM.

Consider GPYCQKWMQTCDSERKCCEGMVCRLWCKKKLL (modifications not checked) [63955918], for which, in [1], the hNav1.7 QPatch % blk at 10 nM came out at 38.5% and the hNav1.7 QPatch IC50 was determined as 10.8 nM. In assay [4], the Nav1.2 IC50, QPatch came out at 1950 nM. The molecule also registered a Nav1.6 IC50, QPatch in assay [2] of 1990 nM.

Regarding YCQKWMQTCDAERKCCEGFSCRLWCKKKLL (modifications not checked) [64087946], in assay [1], the hNav1.7 QPatch % blk at 10 nM was determined as 20.7%. In assay [3], the Nav1.4 IC50, QPatch was 2590 nM.

For the molecule YCQKWMQTCDSERKCCNGMVCRLWCKKKLL (modifications not checked) [64053327], in assay [1], the hNav1.7 QPatch % blk at 10 nM was 51.9% and the hNav1.7 QPatch IC50 was 7.9 nM. The same molecule displayed a Nav1.2 IC50, QPatch in [4] of 6660 nM. For the same molecule, the Nav1.4 IC50, QPatch in assay [3] is 3870 nM. This molecule had a Nav1.1 IC50, QPatch in [5] of 6390 nM.

GPQCQKWMQTCDRNRKCCEGFVCTLWCRKKLW [NV1D3044]: the IC50 (in general, the concentration that inhibits the measured activity by half) in the assay with human Nav1.7, Q15858 turned out to be 4.6 nM; with human Nav1.6, Q9UQD0 it was 308 nM.

On to GPQCQKWMQTCDRERKCCEGFVCTLWCRKKLW (modifications not checked) [Protoxin-II variant NV1D3034], for which the hNav1.5 QPatch IC50 in assay [6] is > 1000 nM.

On to GPQCQKWMQTCDRTRKCCEGFVCTLWCRKKLW [NV1D3368], for which the IC50 stood at 5.7 nM with human Nav1.7, Q15858 and 1470 nM with human Nav1.6, Q9UQD0.

Regarding YCQKWMQTCDSERKCCEGMVCRLWCKKKLW (modifications not checked) [64087907], in assay [1], the hNav1.7 QPatch % blk at 10 nM amounted to 45.1% and the hNav1.7 QPatch IC50 came to 7.1 nM. The Nav1.4 IC50, QPatch in assay [3] stood at 1460 nM.

Take GPYCQKWMQTCDANRKCCEGFSCRLWCKKKLW [NV1D3586-NH2]: the IC50 came out at 1.5 nM with human Nav1.7, Q15858 and 98.5 nM with human Nav1.6, Q9UQD0.

With GPQCQKWMQTCDAERKCCEGFVCRLWCKKKLW (modifications not checked) [Protoxin-II variant NV1D2775], the hNav1.5 QPatch IC50 in assay [6] is > 3000 nM.

As to GPSCQKWMQTCDAERKCCEGFVCRLWCKKKLW (modifications not checked) [Protoxin-II variant NV1D2773], the hNav1.5 QPatch IC50 in assay [6] was > 3000 nM.

GPACQKWMQTCDANRKCCEGFSCRLWCKKKLW [NV1D3587]: the IC50 in the assay with human Nav1.7, Q15858 is 12.7 nM; with human Nav1.6, Q9UQD0, 434 nM.

Molecule GPYCQKWMQTCDSERKCCEGMVCRLWCKKKLW (modifications not checked) [63930841] gave a hNav1.7 QPatch IC50 in [1] of 20.9 nM. The molecule further registered a Nav1.4 IC50, QPatch in assay [3] of 543 nM.

As for GPACQKWMQTCDAERKCCEGFVCRLWCKKKLW (modifications not checked) [Protoxin-II variant NV1D2774], the hNav1.5 QPatch IC50 in [6] is > 3000 nM.

With GPQCQKWMQTCDARRKCCEGFVCRLWCKKKLW [NV1D3006], the IC50 in the assay with human Nav1.7, Q15858 came out at 3.3 nM; with human Nav1.6, Q9UQD0, 124 nM.

In turn, GPRCQKWMQTCDAERKCCEGFVCRLWCKKKLW (modifications not checked) [Protoxin-II variant NV1D2772] came in with a hNav1.7 QPatch IC50 in assay [7] of 6.2 nM. Further, the hNav1.5 QPatch IC50 in [6] was > 3000 nM.

Regarding GPQCQKWMQTCDAERKCCEGFSCTLWCKKKLW [NV1D2974], the IC50 was determined as 7 nM with human Nav1.7, Q15858 and 618 nM with human Nav1.6, Q9UQD0.

In assay [1], YCQKWMQTCDSERKCCEGMVCRLWCKKKLL (modifications not checked) [64032488] displayed a hNav1.7 QPatch % blk at 10 nM of 45.6% and a hNav1.7 QPatch IC50 of 6.5 nM. The molecule further had a Nav1.2 IC50, QPatch in [4] of 1340 nM. The Nav1.6 IC50, QPatch in [2] was 1840 nM.

Consider QCQKWMQTCDRERKCCEGFVCTLWCRKKLW [(-GP) N-Ac-NV1D3034-NH2], for which the IC50 with human Nav1.7, Q15858 was determined as 2.5 nM; with human Nav1.6, Q9UQD0, 165 nM.

(Values after patent US20210363204A1.)
